# Test results reported in patent publication US20240066051A1, “NASAL SPRAY USING PENTOSAN POLYSULFATE AND MUCOPOLYSACCHARIDE POLYSULFATE FOR COVID-19 PREVENTION AND TREATMENT” (priority 2022, published 2024).
# Target: T1, S-protein RBD (WT) (Severe acute respiratory syndrome coronavirus 2, UniProt P0DTC2)
# T1 construct: made in house; host or cells: Expi293F cells
# Parameters: species or system SARS-CoV-2
# Settings: read-out: IC50 against the S-protein RBD binding to immobilized heparin
substance,measurement,value
mucopolysaccharide polysulfate [MPS],pIC50,~8.05

# pIC50: −log10 of the molar value.
